Data as given in PubChem BioAssay AID504761 (Drosophila RNAi Screening Center, 2011).

Aim: 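Fly genes whose silencing reduces dengue virus type 2 infection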 (primary screen)
Cells: D.Mel-2 cells from Drosophila
Reagents: long dsRNA against Drosophila genes
Challenge: infection with dengue virus type 2; dose and infection time not stated
Measurement: 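Per well on two replicate plates, imaging gave the percent of cells positive for viral envelope protein, ranked by infection, and a nuclear count of cells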
Scale: infection score: higher = more virus-infected cells; cell count: higher = more cells in the well
Hit rule: 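Very low infection ranking in both replicate wells (chance probability at most 0.065), then a retest showing infection dropped 1.5-fold or more at p below 0.05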
Meaning of the calls: active = confirmed: knock-down lowers infection; inactive = not picked or not confirmed
In all, the deposit lists about 22,000 reagents; this is a random part of those with a known target gene and a result. Of all reagents, 116 (0.52%) got an active call. 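Calls depend on retest data that are not deposited; infection was ranked per plate without normalising between plates; the unit of the infection score is not given.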 The raw values are shown without normalisation. A number with no mark means an inactive call. A plus sign joins genes that one reagent is predicted to hit. Reagent sequences are not shown. Not given: the amount of reagent, the time to read-out.

target gene | amplicon | infection score, replicate 1 | infection score, replicate 2 | cell count, replicate 1 | cell count, replicate 2
Unc-76 | DRSC18193 | 0.47 | 0.59 | 6425 | 6415
Unc-76 | DRSC18560 | 0.69 | 0.8 | 6237 | 6353
CG31407 | DRSC12761 | 1.41 | 1.48 | 5877 | 5756
Sans | DRSC06357 | 17.1 | 12.9 | 5585 | 6509
Sans | DRSC27928 | 35.7 | 19 | 4853 | 5906
Acf | DRSC14101 | 5.9 | 3.11 | 5933 | 6017
Acf | DRSC29797 | 17.6 | 8.65 | 5783 | 5836
mRpL51 | DRSC02200 | 21.9 | 9.88 | 4392 | 2672
mRpL51 | DRSC29908 | 16.6 | 8.47 | 6055 | 5999
BigH1 | DRSC15491 | 3.67 | 5.11 | 6269 | 6492
BigH1 | DRSC27817 | 19.3 | 27.2 | 6984 | 5765
Shal | DRSC09625 | 0.65 | 1.34 | 6002 | 6248
Shal | DRSC11283 | 1.44 | 4.77 | 6450 | 6335
Edem1 | DRSC18573 | 4.28 | 1.66 | 6362 | 6550
CRMP | DRSC12073 | 7.19 | 1.38 | 5717 | 6441
CRMP | DRSC12345 | 1.31 | 5.27 | 7004 | 6621
CRMP | DRSC27638 | 3.56 | 6.2 | 6796 | 6729
Tsp86D | DRSC15607 | 2.1 | 8.67 | 6462 | 6676
CG32037 | DRSC10363 | 2.91 | 2.34 | 6282 | 6113
Cyp4p1 | DRSC07372 | 17.3 | 5.43 | 6631 | 6719
Cyp4p1 | DRSC26036 | 8.33 | 5.13 | 6471 | 5891
Ggamma30A + borr | DRSC24954 | 14.1 | 18.4 | 5402 | 5014
Pbp45 | DRSC16509 | 7.95 | 5.62 | 6141 | 6653
NimC3 | DRSC03556 | 13.8 | 2.07 | 6471 | 917
NimC3 | DRSC22528 | 3.63 | 2.1 | 6620 | 6801
NimC3 | DRSC28582 | – | – | 310 | 302
grim | DRSC23169 | 0.38 | 45.6 | 5306 | 5582
CG9016 | DRSC03127 | 1.03 | 3.07 | 6533 | 6474
CG9016 | DRSC24205 | 4.12 | 3.33 | 6913 | 6344
CG18622 | DRSC15360 | 2.41 | 12.6 | 6422 | 6229
CG32440 | DRSC11480 | 0.89 | 0.79 | 6370 | 6809
Eig71Ef | DRSC11153 | 1.32 | 2.12 | 5894 | 6189
Atg4a | DRSC00656 | 4.47 | 2 | 6471 | 6459
Atg4a | DRSC28580 | – | – | 411 | 362
gt | DRSC23119 | 0.83 | 1.64 | 6652 | 6697
gt | DRSC28482 | 7.49 | 9.34 | 5248 | 2579
CG5958 | DRSC02915 | 1.19 | 5.35 | 6282 | 6321
CG7536 | DRSC20050 | 1.38 | 1.81 | 6813 | 6460
CG13226 | DRSC06346 | 8.3 | 9.59 | 6289 | 6936
CG14589 | DRSC04866 | 9.92 | 10.8 | 5956 | 6926
chb | DRSC11469 | 3.36 | 5.82 | 2681 | 3299
Ccdc39 | DRSC12286 | 1.93 | 3.94 | 6882 | 6896
CG10466 | DRSC02060 | 16.9 | 14.8 | 5336 | 4747
CG10492 | DRSC24982 | 17 | 21.3 | 4869 | 5367
Rab32 | DRSC05146 | 3.11 | 3.61 | 5888 | 5849
Rab32 | DRSC07522 | 31.5 | 8.95 | 4988 | 6513
Rab32 | DRSC28156 | 27.4 | 15.9 | 5868 | 6586
Brd7-9 | DRSC03017 | 6.47 | 4.5 | 6384 | 5960
Brd7-9 | DRSC29592 | – | – | 363 | 361
CG5342 | DRSC15776 | 6.74 | 6.37 | 6036 | 6328
CG3339 | DRSC13821 | 1.57 | 0.73 | 6256 | 5205
CG3339 | DRSC15479 | 7.41 | 2.86 | 5010 | 7055
CG14402 | DRSC02386 | 4.03 | 2.58 | 1538 | 7223
MICU1 | DRSC02752 | 5.84 | 3.64 | 6130 | 5935
CG18233 | DRSC10308 | 1.97 | 3.12 | 6495 | 6607
red | DRSC23177 | 0.68 | 12.3 | 5173 | 6019
px | DRSC23244 | 1.14 | 21.4 | 6574 | 4890
px | DRSC25863 | 1.77 | 1.75 | 6485 | 6274

Entries listed so far whose target name begins with R or r (4):
target gene | amplicon | infection score, replicate 1 | infection score, replicate 2 | cell count, replicate 1 | cell count, replicate 2
Rab32 | DRSC05146 | 3.11 | 3.61 | 5888 | 5849
Rab32 | DRSC07522 | 31.5 | 8.95 | 4988 | 6513
Rab32 | DRSC28156 | 27.4 | 15.9 | 5868 | 6586
red | DRSC23177 | 0.68 | 12.3 | 5173 | 6019
